Reference: US20240083885A1, “COMPOSITIONS AND METHODS FOR INHIBITING M PRO PROTEASE ACTIVITY AND FOR PREVENTING AND TREATING SARS-COV-2 INFECTION” (priority 2020, published 2024)
Like-named read-outs stand apart in the source and are kept apart here.

Assays:
SARS-CoV-2 M^pro = SARS-CoV-2 M^pro (Severe acute respiratory syndrome coronavirus 2 (2019-nCoV) (SARS-CoV-2), UniProt P0DTD1); assay: FRET-based enzymatic assay against SARS-CoV-2 M^pro; assay type: biochemical; details: for IC50: read-out: IC50 against SARS-CoV-2 M^pro, FRET-based enzymatic assay; for enzymatic inhibition of SARS-CoV-2 M^pro (in words): compared to ML188 (1) or compound 13
Vero E6 cells = assay: Cytotoxicity in Vero E6 cells (neutral red uptake)
[1] = read-out: CC50 in Vero E6 cells, Vero E6 cells

Compound | IC50 (SARS-CoV-2 M^pro) [µM] | cellular cytotoxicity in Vero E6 cells (in words) (Vero E6 cells) | enzymatic inhibition of SARS-CoV-2 M^pro (in words) (SARS-CoV-2 M^pro) | CC50 (Vero E6 cells) [µM] | CC50 (Vero E6 cells; [1]) [µM] | fold increase in M^pro inhibition (SARS-CoV-2 M^pro; compared to compound 13) [fold]
C[C@H](NC(=O)C(c1cccnc1)N(C(=O)c1ccco1)c1ccc(C2CCCCC2)cc1)c1ccccc1 (stereo partly shown) [Jun8-66-1] | < 3 | moderate to high cellular cytotoxicity | – | – | – | –
CC(C)(C)c1ccc(N(C(=O)c2ccco2)C(C(=O)NC2CC2)c2cccnc2)cc1 (stereo not shown) [Jun8-58-2] | < 5 | moderate to high cellular cytotoxicity | improved enzymatic inhibition | – | – | –
C[C@H](NC(=O)C(c1cccnc1)N(C(=O)c1ccco1)c1ccc(-c2ccccn2)cc1)c1ccccc1 (stereo partly shown) [Jun9-6-4] | < 3 | – | – | > 100 | – | –
O=C(NC1CCCC1)C(c1cccnc1)N(C(=O)c1ccco1)c1ccc(-c2ccccc2)cc1 (stereo not shown) | < 5 | – | – | – | > 100 | –
CC(C)(C)NC(=O)C(c1cncnc1)N(C(=O)c1ccco1)c1ccc(C(C)(C)C)cc1 (stereo not shown) | > 20 | – | – | – | – | –
CC(C)(C)c1ccc(N(C(=O)c2ccco2)C(C(=O)NC2CCCCC2)c2cccnc2)cc1 (stereo not shown) | < 5 | moderate to high cellular cytotoxicity | improved enzymatic inhibition | – | – | –
C[C@H](NC(=O)C(c1cccnc1)N(C(=O)c1ccco1)c1ccc(-c2ccco2)cc1)c1ccccc1 (stereo partly shown) [Jun8-91-5] | < 3 | moderate to high cellular cytotoxicity | – | – | – | –
CC(C)(C)c1ccc(N(C(=O)c2ccco2)C(C(=O)NC2CCCC2)c2cccnc2)cc1 (stereo not shown) [Jun8-88-2] | < 5 | – | improved enzymatic inhibition | > 100 | – | –
C[C@H](NC(=O)C(c1cccnc1)N(C(=O)c1ccco1)c1ccc([Si](C)(C)C)cc1)c1ccccc1 (stereo partly shown) [Jun8-75-2] | < 3 | moderate to high cellular cytotoxicity | – | – | – | 2.9
O=C(NC1CCCCC1)C(c1cccnc1)N(C(=O)c1ccco1)c1ccc(-c2ccccc2)cc1 (stereo not shown) [Jun9-3-3] | < 5 | moderate to high cellular cytotoxicity | – | – | – | –
CC(C)(C)CC(C)(C)NC(=O)C(c1cccnc1)N(C(=O)c1ccco1)c1ccc(-c2ccccc2)cc1 (stereo not shown) | < 5 | – | – | – | > 100 | –
